Km data for one substance are collected here from article PMC7694997.

The test system of this data set is CSCCC(=O)C(=O)O. Description: purified protein. To be noted: aminotransferase domain, 5 mM phenylalanine, 1-40 mM KMTB, 50 nM enzyme, 100 mM ammonium bicarbonate pH 7.4.

Turning to “MpMetRS (M568A, full length) (Malacoplasma penetrans HF-2; M568A)”, the Km (as a rule, the concentration of substrate that gives half-maximal velocity) is recorded as 4.1 ± 0.3 mM.
